# Results reported in patent US20250084091A1, “INHIBITORS OF SARS-COV-2” (The Texas A&M University System, priority 2021, published 2025).
# Read-outs that look alike come from different tables or passages of the source.
# Tests used:
# [1] = system: SARS-CoV-2 (strain USA-WA1/2020); conditions: read-out: CoV-2 HeLa EC50
# HeLa-ACE2 cells [2] = experiment: Infected host cell toxicity (total cells) in viral replication assay; conditions: read-out: HeLa-ACE2 Total Cells EC50; Table 2; total cell count in infected plates
# [3] = molecular target: SARS-CoV-2 main protease (Mpro) (Severe acute respiratory syndrome coronavirus 2, UniProt P0DTD1); conditions: read-out: Enzyme IC50
# CoV-2 in Vero cells = experiment: CoV-2 Vero antiviral assay; type: cell-based, SARS-CoV-2; conditions: Table 2
# HeLa-ACE2 cells [4] = experiment: Uninfected host cell cytotoxicity counter screen; type: cell-based; conditions: read-out: Uninfected HeLa-ACE2 CC50, Table 2, 24 hours
# Method: Uninfected host cell cytotoxicity counter screen: HeLa-ACE2 cells were maintained as described for the infection assay and seeded in the assay-ready plates at 400 cells/well. Plates were incubated for 24 hours at 37° C. 5% CO2. To assess cell viability, the Image-iT DEAD green reagent was used according to manufacturer instructions. Cells were fixed with 4% paraformaldehyde, and counterstained with DAPI. Fixed cells are imaged as described above.
# Viral replication data analysis: Data from the primary screen and the host cell cytotoxicity screen are normalized to neutral (DMSO) […] inhibitor controls (2.5 μM Remdesivir for antiviral effect and 10 μM puromycin for infected host cell toxicity). For the uninfected host cell cytotoxicity counter-screen 40 μM puromycin is used as the positive control. Concentration response experiments will be tested in triplicate.
# [5] = Table 2, SARS-CoV-2 infected HeLa-ACE2 cells
SMILES,"EC50 [1, 5] [nM]",EC50 (HeLa-ACE2 cells [2]) [nM],IC50 ([3]; Table 2) [nM],CoV-2 Vero EC50/100 (CoV-2 in Vero cells) [µg/mL],CC50 (HeLa-ACE2 cells [4]) [nM],EC50 ([1]; Table 3) [nM],"IC50 ([3]; Table 3, select example compounds against mpro) [nM]"
Cc1cncc(C(=O)N2CC3CCC(C2)N3C(c2cccc(F)c2)c2ccccc2S(C)(=O)=O)c1 (centres unmarked),62,111,49,2.5,> 39800,,
Cc1cncc(C(=O)N2CCN(C3c4ccccc4CS(=O)(=O)c4ccccc43)CC2)c1 (centres unmarked),80,135,48,5,> 39800,80,48
"Cc1cncc(C(=O)N2CCN(C(c3ccccc3)c3ccccc3S(C)(=O)=O)CC2)c1 (centres unmarked) [NZ-807, (5-methyl-3-pyridyl)-[4-[(2-methylsulfonylphenyl)-phenyl-methyl]piperazin-1-yl]methanone]",204,4910,101,,> 39800,,
Cc1cncc(C(=O)N2CC3CCC(C2)N3C2c3ccccc3CS(=O)(=O)c3ccccc32)c1 (centres unmarked),1940,6910,250,,> 39800,,
CC(=O)Nc1cncc(C(=O)N2CCN(C3c4ccccc4CS(=O)(=O)c4ccccc43)CC2)c1 (centres unmarked),1550,1120,300,,> 39800,,
Cc1cncc(C(=O)N2CCN(C3c4ccccc4CSc4ccccc43)CC2)c1 (centres unmarked),210,> 9610,66,2.5,24700,,
